Pooled drug test results. Numbers come from NIAID ChemDB, via PubChem.

All rows: toxicity to cultured cells; cells: VERO; read-out: CC50

Neighbouring rows are from separate reports. CCn is the concentration with n% toxicity to the cells. Blank or dashed fields: not listed here.

structure,read by,result
Nc1nccc2c1ncn2[C@@H]1C=C[C@@H](O)[C@H]1O,-,2.2 µg/mL
C[C@H]1O[C@@H](O[C@H]2CC[C@@]3(C)[C@H](CC[C@@H]4[C@@H]3CC[C@]3(C)[C@@H](C5=CC(=O)OC5)CC[C@]43O)C2)C[C@H](O)[C@@H]1O,MTT,6.6 µM
CCn1cc(C(=O)O)c(=O)c2cc(F)c(N3CCN(C(=O)C4NC(=O)NC(=O)C4[N+](=O)[O-])CC3)cc21,MTT,123.9 µM
[O-][n+]1c2ccccc2nc2ccccc21,-,>10 µg/mL
Cn1cc(C(=O)O)c(=O)c2cc([N+](=O)[O-])c3cccnc3c21,luminescence,>100 µg/mL
Cc1cn([C@@H]2C[C@@H](N=[N+]=[N-])[C@H](COP(=O)(O)OC[C@H]3O[C@@H](n4cc(C)c(=O)[nH]c4=O)C[C@@H]3N=[N+]=[N-])O2)c(=O)[nH]c1=O,-,13.5 µM
c1ccc(Nc2nc(-c3ccn[nH]3)cs2)nc1,luminescence,40 µM
Clc1ncnc2c1ncn2C1C[C@H]2C[C@@H]1C[NH2+]2.O=C([O-])C(F)(F)F,MTS,49 µM
Nc1nc2c(ncn2[C@H]2C[C@@]23C[C@@H]3CO)c(=O)[nH]1,-,>100 µM
CCOC(=O)Nc1cc(NC(C)CC(C)CN(CC)CC)c2nc(-c3ccccc3)c(-c3ccccc3)nc2n1,-,6.3 µg/mL
Cn1c2ccccc2c2cc(C=NNc3nc(-c4ccccc4)cs3)ccc21,MTT,321.5 µM
Nc1ncnc2c1ncn2[C@H]1CC[C@@H](CO)O1,-,>100 µM
CO[C@H]1[C@@H](O)C[C@H](O[C@H]2[C@@H](O)C[C@H](O[C@H]3[C@@H](O)C[C@H](O[C@H]4CC[C@@]5(C)[C@H](CC[C@@H]6[C@@H]5CC[C@]5(C)[C@@H](C7=CC(=O)OC7)CC[C@]65O)C4)O[C@@H]3C)O[C@@H]2C)O[C@@H]1C,MTT,132.3 µM
Cc1c(N)nc([C@H](CC(N)=O)NC[C@@H](N)C(N)=O)nc1C(=O)N[C@H](C(=O)NC(C)C(O)CC(=O)NC(C(=O)NC(OC1OC(C)C(N)C(O)C1O)C(O)c1nc(-c2nc(C(=O)NCCCCN)cs2)cs1)[C@H](C)O)C(OC1OC(CO)C(O)C(O)C1OC1OC(CO)C(O)C(OC(N)=O)C1O)c1cnc[nH]1.Cl.Cl.Cl.Cl,-,8.7 µg/mL
O=C1O[C@@H](CNc2ccon2)[C@@H]2COc3cc(C4=CCN(CCO)CC4)c(F)cc3N12,resazurin,>64 µg/mL
CCCN(CCC)CCCOC(=O)c1ccc2oc3ccc(C(=O)OCCCN(CCC)CCC)cc3c2c1,-,5.35 µg/mL
CC(C)(C)c1ccc(CNc2ccc(N3CCSCC3)cc2)cc1,-,2 µg/mL
CO[C@H]1C[C@H](O[C@H]2CC[C@]3(C=O)[C@H]4CC[C@]5(C)[C@@H](C6=CC(=O)OC6)CC[C@]5(O)[C@@H]4CC[C@]3(O)C2)O[C@H](C)[C@H]1O[C@@H]1O[C@H](CO[C@@H]2O[C@H](CO)[C@@H](O)[C@H](O)[C@H]2O)[C@@H](O)[C@H](O)[C@H]1O,MTT,>250 µM
O=C1O[C@@H](CNC(=O)C(F)(F)F)[C@@H]2COc3cc(C4=CCN(CCO)CC4)c(F)cc3N12,resazurin,>64 µg/mL
c1ccc2c(CNc3ccc(N4CCSCC4)cc3)cccc2c1,-,4 µg/mL
C[C@H]1O[C@@H](O[C@H]2[C@@H](O)C[C@H](O[C@H]3CC[C@@]4(C)[C@H](CC[C@@H]5[C@@H]4CC[C@]4(C)[C@@H](C6=CC(=O)OC6)CC[C@]54O)C3)O[C@@H]2C)C[C@H](O)[C@@H]1O,MTT,10.05 µM
O=C1NC(=O)C([N+](=O)[O-])C(C(=O)Nc2ccc(Cl)cc2)N1,MTT,>199.8 µM
Cn1c2ccccc2c2cc(C=NNC(N)=S)ccc21,MTT,202.4 µM
CC(=O)NC[C@@H]1OC(=O)N2c3ccc(C4=CCN(CCO)CC4)cc3OC[C@@H]12,resazurin,26.77 µg/mL
CCOC(=O)c1cn(CC)c2c(cc([N+](=O)[O-])c3cccnc32)c1=O,luminescence,>100 µg/mL
C#CCNC1=C(C)C(=O)C2=C(C1=O)[C@@H](COC(N)=O)[C@@]1(OC)[C@H]3N[C@H]3CN21,-,2.7 µg/mL
Cn1c2ccccc2c2cc(C=NNc3nc(-c4ccc(F)cc4)cs3)ccc21,MTT,268.5 µM
O=C1C(=O)N(CCn2cc(CN3CCN(c4cc5c(cc4F)c(=O)c(C(=O)O)cn5C4CC4)CC3)nn2)c2ccc(Cl)cc21,MTT,40.37 µM
CC(C)(C)OC(=O)N1[C@H]2CC[C@@H]1C(n1cnc3c(Cl)ncnc31)C2,MTS,85 µM
COC(=O)[C@H](C)NP(=O)(OC[C@@H]1C[C@]12C[C@@H]2n1cnc2c(N)ncnc21)Oc1ccccc1,-,27 µM
CC1(C)CC[C@]2(C(=O)O)CC[C@]3(C)C(=CCC4[C@@]5(C)CC[C@H](O)C(C)(C)C5CC[C@]43C)C2C1,-,82.9 µg/mL
Nc1nc(F)nc2c1ncn2[C@H]1CS[C@@H](CO)O1,-,5.6 µM
Cn1c2ccccc2c2cc(C=NNc3nc(-c4cc5ccccc5oc4=O)cs3)ccc21,MTT,399.2 µM
CCCCCc1cc(/C=C2/N=C(c3ccc[nH]3)C=C2OC)[nH]c1C,-,<0.42 µg/mL
Cc1cccc(C)c1Nc1nc(-c2ccccc2S)cs1,luminescence,>100 µM
CO/N=C1/C(=O)N(CCn2cc(CN3CCN(c4cc5c(cc4F)c(=O)c(C(=O)O)cn5C4CC4)CC3)nn2)c2ccccc21,MTT,20.35 µM
Cc1c(CN2CCSCC2)cc(-c2ccc(F)cc2)n1-c1ccc(F)cc1,-,8 µg/mL
N#[N+]c1c([O-])ccc2nc3ccccc3nc12,-,1.7 µg/mL
Nc1ccn([C@@H]2CS[C@@H](CO)O2)c(=O)n1,-,>100 µM
COc1cc([C@H]2OC[C@]3(O)[C@@H](c4ccc(O)c(OC)c4)OC[C@H]23)ccc1O,-,96.9 µg/mL
Nc1ncnc2c1ccn2[C@@H]1O[C@H](CO)[C@@H](O)[C@H]1O,-,0.4 µg/mL
Oc1cc(C(O)CCc2ccccc2)ccc1Oc1ccccc1,MTT,>300 µg/mL
Cc1cn([C@H]2C[C@H](N=[N+]=[N-])[C@@H](COP(=O)(OCCC#N)OC[C@@H]3CC[C@H](n4cnc5c(N)ncnc54)O3)O2)c(=O)[nH]c1=O,-,≥100 µM
CC(C)(C)NCc1cc(C(C)(C)C)cc(-c2ccc(Cl)cc2)c1O,-,10 µg/mL
Cc1ccc(CCC(O)c2ccc(Oc3ccccc3)c(O)c2)cc1,MTT,>300 µg/mL
C=C(C)[C@@H]1CC[C@]2(C(=O)O)CC[C@]3(C)C(CCC4[C@@]5(C)CC[C@H](O)C(C)(C)C5CC[C@]43C)C12,-,78.5 µg/mL
Cc1ccc(CCC(=O)c2ccc(Oc3ccccc3)c(O)c2)cc1,MTT,>300 µg/mL
Nc1nc2c(ncn2[C@H]2C[C@]23C[C@@H]3CO)c(=O)[nH]1,-,>100 µM
C[C@H]1O[C@@H](O[C@H]2CC[C@]3(C=O)[C@H]4CC[C@]5(C)[C@@H](C6=CC(=O)OC6)CC[C@]5(O)[C@@H]4CC[C@]3(O)C2)C[C@H](O)[C@@H]1O,MTT,>250 µM
COc1cc(-c2cc(=O)c3c(O)cc(O)cc3o2)cc(OC)c1O,-,20.2 µg/mL
CC(=O)O[C@H]1C(=O)[C@]2(C)[C@@H](OC(C)=O)C[C@H]3OC[C@@]3(OC(C)=O)[C@H]2[C@H](OC(=O)c2ccccc2)[C@]2(O)C[C@H](OC(=O)[C@H](OC(C)=O)[C@@H](NC(=O)c3ccccc3)c3ccccc3)C(C)=C1C2(C)C,-,4.6 µg/mL
Cc1cccc(C)c1Nc1nc(-c2cccnc2)cs1,luminescence,94 µM
CN1CCN(c2ccccc2NCc2cccc3ccccc23)CC1,-,2 µg/mL
O=C1C(=O)N(CCn2cc(CN3CCN(c4cc5c(cc4F)c(=O)c(C(=O)O)cn5C4CC4)CC3)nn2)c2ccccc21,MTT,85.44 µM
OC[C@H]1O[C@@H](n2cnc3c(Cl)ncnc32)CS1,-,46.5 µM
C1CCNC1.S=C(S)N1CCCC1,-,33.9 µg/mL
Nc1ncnc2c1ncn2[C@@H]1OC[C@](CO)(CCP(=O)(O)O)[C@@H]1F,MTT,>100 µM
C=C(C)[C@@H]1CC[C@]2(CO)CC[C@]3(C)C(CCC4[C@@]5(C)CC[C@H](O)C(C)(C)C5CC[C@]43C)C12,-,101 µg/mL
CC(=O)O[C@H]1C[C@H](O[C@H]2[C@@H](O)C[C@H](O[C@H]3[C@@H](O)C[C@H](O[C@H]4CC[C@@]5(C)[C@H](CC[C@@H]6[C@@H]5CC[C@]5(C)[C@@H](C7=CC(=O)OC7)CC[C@]65O)C4)O[C@@H]3C)O[C@@H]2C)OC(C)[C@H]1O[C@@H]1O[C@H](CO)[C@@H](O)[C@H](O)[C@H]1O,MTT,19 µM
c1ccc(Nc2nc(-c3ccncn3)cs2)nc1,luminescence,37 µM
COc1ccc(CCC(=O)c2ccc(Oc3ccccc3)c(O)c2)cc1,MTT,>300 µg/mL
CCCN(CCC)c1ccc(N=Nc2ccccc2C(=O)O)cc1,-,5 µg/mL
O=C1NC(=O)C([N+](=O)[O-])C(C(=O)Nc2ccc(Br)cn2)N1,MTT,<174.5 µM
C=CCCCCn1c2ccccc2c2c(C)c3cnccc3c(C)c21,-,5.54 µg/mL
COc1ccc(CCC(O)c2ccc(Oc3ccccc3)c(O)c2)cc1,MTT,>300 µg/mL
C[C@H]1O[C@@H](O[C@H]2CC[C@@]3(C)[C@H](CC[C@@H]4[C@@H]3CC[C@]3(C)[C@@H](C5=CC(=O)OC5)C(O)C[C@]43O)C2)C[C@H](O)[C@@H]1O[C@@H]1O[C@H](CO)[C@@H](O)[C@H](O)[C@H]1O,MTT,148.5 µM
Oc1cc(C(O)CCc2ccco2)ccc1Oc1ccccc1,MTT,>300 µg/mL
Cn1c2ccccc2c2cc(C=NNc3nc(-c4cccc(F)c4)cs3)ccc21,MTT,248.5 µM
COc1ccc(-c2oc3cc(O)c(OC)c(O)c3c(=O)c2OC)cc1,-,28.7 µg/mL
CCN(CC)CCNc1ccc(CO)c2oc3ccc(OS(=O)(=O)c4ccc(C)cc4)cc3c(=O)c12,-,0.79 µg/mL
O=C(CCc1ccc(F)cc1)c1ccc(Oc2ccccc2)c(O)c1,MTT,>300 µg/mL
Nc1nc2c(ncn2[C@H]2C[C@@]23C[C@H]3CO)c(=O)[nH]1,-,>100 µM
O=C(NNC(=S)Nc1ccc(S(=O)(=O)N2CCCCC2)cc1)c1ccncc1,-,>62.5 µg/mL
Nc1ncnc2c1[nH]c[n+]2C1C[C@@H]2C[NH2+][C@H]1C2.O=C([O-])C(F)(F)F.O=C([O-])C(F)(F)F,MTS,>109 µM
NC(Cc1c[nH]c2ccccc12)C(=O)NC(Cc1c[nH]c2ccccc12)C(=O)NC(Cc1c[nH]c2ccccc12)C(=O)O,-,22.02 µg/mL
CCCCCC(=O)N1[C@@H]2CC(n3cnc4c(Cl)ncnc43)[C@H]1c1ccccc12,MTS,12 µM
O=C(Nc1ccc(Nc2ccncc2)cc1)c1ccc(Nc2ccnc3ccc([N+](=O)[O-])cc23)cc1[N+](=O)[O-],-,>10 µg/mL
CO[C@H]1C[C@H](O[C@H]2[C@@H](O)C[C@H](O[C@H]3[C@@H](O)C[C@H](O[C@H]4CC[C@@]5(C)[C@H](CC[C@@H]6[C@@H]5CC[C@]5(C)[C@@H](C7=CC(=O)OC7)CC[C@]65O)C4)O[C@@H]3C)O[C@@H]2C)O[C@H](C)[C@H]1O,MTT,88.5 µM
O=C(Cc1ccc(Cl)cc1)N/N=C/c1ccc([N+](=O)[O-])s1,-,5.07 µg/mL
Nc1ccn([C@H]2CS[C@@H](CO)O2)c(=O)n1,-,>100 µM
O=C(Oc1c(O)c2ccccc2c2ccccc12)c1ccccc1,-,0.24 µg/mL
Cc1c(CN2CCSCC2)cc(-c2ccc(F)cc2)n1-c1ccccc1,-,4 µg/mL
CN(C)C(=O)Nc1c([N+](=O)[O-])cc(C(F)(F)F)cc1[N+](=O)[O-],-,36 µg/mL
COC(=O)NC[C@@H]1OC(=O)N2c3cc(F)c(C4=CCN(CCO)CC4)cc3OC[C@@H]12,resazurin,57.43 µg/mL
C=C(C)[C@@H]1CC[C@]2(C)CCC3(C)[C@H](CC[C@@H]4[C@@]5(C)CC[C@H](O)C(C)(C)[C@@H]5CC[C@]43C)[C@@H]12,-,33 µg/mL
O=C(C(O)CO)N1CC=C(c2c(F)cc(N3CC(COc4ccon4)OC3=O)cc2F)CC1,resazurin,>64 µg/mL